A mixed list of measured activities; the numbers were collected in NIAID ChemDB.

All rows: growth or infection tests; agent: HIV-1; cell line: H9; read-out: EC50

ECn is the concentration giving n% inhibition of infection, replication or growth.

compound | strain or isolate | method | value
C=COC(=O)Oc1c(OC)cc([C@@H]2c3cc4c(cc3[C@@H](O)[C@H]3COC(=O)[C@H]23)OCO4)cc1OC | IIIB | p24 | 0.034 µg/mL
COc1ccc(C[C@@H]2c3cc(Oc4cc(C[C@@H]5c6cc(O)c(OC)cc6CCN5C)ccc4O)c(OC)cc3CCN2C)cc1 | IIIB | p24 | <0.8 µg/mL
CCc1cc(CCc2nc3c(Cl)ccc(Cl)c3o2)c(=S)[nH]c1C | IIIB | p24 | <0.1 µM
CC[C@H](C)[C@H](NC(=O)[C@H](C/C=C/c1ccccc1)C[C@H](O)[C@H](Cc1ccccc1)NC(=O)OC(C)(C)C)C(=O)NCc1nc2ccccc2[nH]1 | IIIB | antigen | <0.012 µM
NC[C@H]1O[C@@H](n2cnc3c(N)ncnc32)[C@H](O)[C@@H]1F | IIIB | p24 / ELISA | 1 µg/mL
COc1cc2c(cc1OC)C(Cc1ccc(O)cc1)N(C)CC2 | IIIB | p24 | <0.8 µg/mL
Cc1ccc(C(=O)OC[C@H]2O[C@@H](n3cc(-c4ccoc4)c(N)nc3=O)C[C@@H]2OC(=O)c2ccc(C)cc2)cc1 | IIIB | RT activity | <10 µg/mL
O=c1[nH]cnc2c1ncn2[C@H]1CC[C@@H](CO)O1 | RF | p24 | 9.1 µM
CCc1cc(NCc2nc3c(Cl)ccc(Cl)c3o2)c(=O)[nH]c1C | IIIB | p24 | <0.1 µM
O=C(O)P(=O)(O)O | IIIB | cytopathic effect / MTT | <8 µM
COc1cc2c(cc1O)[C@@H](Cc1ccc(O)cc1)N(C)CC2 | IIIB | p24 | <0.8 µg/mL
Nc1ccn([C@H]2C=C(F)[C@@H](CO)O2)c(=O)n1 | IIIB | p24 / ELISA | 1 µg/mL
CC(=O)OCOP(=O)(OCOC(C)=O)C(=O)Oc1ccc(Cl)cc1Cl | IIIB | cytopathic effect / MTT | <8 µM
COCCCCCCCCCCCC(=O)O | - | RT activity | <10 µM
Nc1ccn([C@@H]2O[C@H](CO)C=C2F)c(=O)n1 | IIIB | p24 / ELISA | 0.5 µg/mL
Nc1nc2c(ncn2[C@H]2CO[C@@H](CO)O2)c(=O)[nH]1 | IIIB | - | 0.06 µM
CCCC(=O)O[C@H]1CN2CC[C@H](O)[C@@H]2[C@@H](O)[C@@H]1O | U455 | - | <4 µM
Nc1nc(=O)n([C@@H]2C[C@H](O)[C@@H](CO)O2)cc1-c1ccoc1 | IIIB | RT activity | >10 µg/mL
CCCCCCCCOCCCCC(=O)O | - | RT activity | <100 µM
COc1cc2c(cc1O)CC[N+](C)(C)[C@@H]2Cc1ccc(O)cc1 | IIIB | p24 | 20.7 µg/mL
CC(C)C[C@H](NC(=O)[C@H](Cc1ccccc1)C[C@H](O)[C@H](Cc1ccccc1)NC(=O)OC(C)(C)C)C(=O)N[C@@H](Cc1ccccc1)C(N)=O | IIIB | antigen | <6 µM
CCc1cc(CCc2nc3ccccc3o2)c(=S)[nH]c1C | IIIB | p24 | <0.1 µM
CCCCCCc1ccsc1-c1cn([C@@H]2C[C@H](O)[C@@H](CO)O2)c(=O)[nH]c1=O | IIIB | RT activity | >10 µg/mL
Nc1nc(N)c2ncn([C@@H]3O[C@H](CO)[C@@H](F)[C@H]3O)c2n1 | IIIB | p24 / ELISA | 10 µg/mL
CO[C@@H]1C[C@@H](C[C@H]2CC[C@H](C)[C@H]([C@@H](C)C(=O)O)O2)O[C@]2(O[C@](C)([C@H]3CC[C@@](C)([C@@H]4O[C@@H]([C@H]5O[C@@](O)(CO)[C@H](C)C[C@@H]5C)C[C@@H]4C)O3)C[C@H]2C)[C@@H]1C | IIIB | RT activity | 0.68 µg/mL
Cc1cn([C@H]2C[C@H](N=[N+]=[N-])[C@@H](CO)O2)c(=O)[nH]c1=O | IIIB | p24 | 0.0239 µg/mL
Nc1nc(=O)n([C@@H]2CO[C@H](CO)S2)cc1F | IIIB | p24 | 0.1 µM
COc1cc2c(cc1OCc1ccccc1)C(Cc1ccc(Cl)cc1)N(Cc1ccccc1)CC2 | IIIB | p24 | 3.2 µg/mL
Cc1cn([C@H]2C[C@H](N=[N+]=[N-])[C@@H](CO)O2)c(=O)[nH]c1=O | RF | p24 | 0.09 µM
CCCCCCc1ccsc1-c1cn([C@H]2C[C@H](O)[C@@H](CO)O2)c(=O)[nH]c1=O | IIIB | RT activity | >10 µg/mL
CSc1c(C)c(SC)n2ccncc12 | IIIB | MTT / p24 | ~25 µM
O=C1N(Cc2ccc(CO)cc2)[C@H](Cc2ccccc2)[C@H](O)[C@@H](O)[C@@H](Cc2ccccc2)N1Cc1ccc(CO)cc1 | IIIB | virus yield | <0.14 µM
Nc1ccn([C@H]2CO[C@@H](CO)S2)c(=O)n1 | IIIB | p24 | 0.3 µM
CC[C@@]1([C@@H]2O[C@@H]([C@H]3O[C@@](O)(CO)[C@H](C)C[C@@H]3C)C[C@@H]2C)CC[C@H]([C@]2(C)CC[C@]3(C[C@H](O)[C@@H](C)[C@@H]([C@@H](C)[C@@H](OC)[C@H](C)C(=O)O)O3)O2)O1 | IIIB | RT activity | 4.22 µg/mL
CCc1cc(CCN2C(=O)c3ccccc3C2=O)c(=O)[nH]c1C | IIIB | p24 | <40 µM
Cc1cn([C@H]2C[C@H](N=[N+]=[N-])[C@@H](CO)O2)c(=O)[nH]c1=O | IIIB | p24 | 0.0804 µM
COc1cc2c(cc1OC)[C@@H](Nc1ccc(F)cc1)[C@H]1COC(=O)[C@@H]1[C@@H]2c1cc(OC)c(OC)c(OC)c1 | IIIB | p24 | 0.151 µg/mL
CO[P@](=O)(c1cc(C)cc(/C=C/C#N)c1)c1c(C(N)=O)[nH]c2ccc(Cl)c(F)c12 | IIIB | - | 0.0006 µM
Nc1nc(=O)n([C@H]2C[C@H](O)[C@@H](CO)O2)cc1-c1ccccc1 | IIIB | RT activity | >10 µg/mL
CC[C@H](C)[C@H](NC(=O)[C@H](Cc1ccccc1)C[C@H](O)[C@H](Cc1ccccc1)NC(=O)OC(C)(C)C)C(=O)NCc1nc2ccccc2[nH]1 | IIIB | antigen | <0.2 µM
CC[C@@H](O)[C@]1(C)C[C@H](C)[C@@](O)([C@H]2C[C@H](C)[C@H]([C@]3(C)CC[C@H]([C@@H]4CC[C@@]5(O[C@H]([C@@H](C)[C@@H](OC)[C@H](C)C(=O)O)[C@H](C)[C@@H](OC)[C@H]5C)O4)O3)O2)O1 | IIIB | RT activity | 1.63 µg/mL
Cc1cn([C@H]2C[C@H](N=[N+]=[N-])[C@@H](CO)O2)c(=O)[nH]c1=O | - | RT activity | <5 µM
COc1cc([C@@H]2c3cc4c(cc3[C@@H](Nc3ccc([N+](=O)[O-])cc3)[C@H]3COC(=O)[C@H]23)OCO4)cc(OC)c1O | IIIB | p24 | 0.055 µg/mL
Nc1ccn([C@@H]2O[C@H](CO)C[C@@H]2F)c(=O)n1 | IIIB | antigen | ~1 µM
COc1cc([C@@H]2c3cc4c(cc3[C@@H](Nc3ccc(-c5nc6ccccc6[nH]5)cc3)[C@H]3COC(=O)[C@H]23)OCO4)cc(OC)c1O | IIIB | p24 | <0.001 µg/mL
CN1CCc2cc3c(c4c2[C@H]1Cc1ccc(O)cc1-4)OCO3 | IIIB | p24 | 0.84 µg/mL
Cc1ccc(C(=O)OC[C@H]2O[C@@H](n3cc(-c4cccs4)c(N)nc3=O)C[C@@H]2O)cc1 | IIIB | RT activity | >10 µg/mL
COc1cc([C@@H]2c3cc4c(cc3[C@@H](O[C@@H]3O[C@@H]5CO[C@@H](C)O[C@H]5[C@H](O)[C@H]3O)[C@H]3COC(=O)[C@H]23)OCO4)cc(OC)c1O | IIIB | p24 | 0.03 µg/mL

4 of the rows above, restated:

| compound | strain or isolate | method | value |
|---|---|---|---|
| Cc1ccc(C(=O)OC[C@H]2O[C@@H](n3cc(-c4ccoc4)c(N)nc3=O)C[C@@H]2OC(=O)c2ccc(C)cc2)cc1 | IIIB | RT activity | <10 µg/mL |
| Cc1cn([C@H]2C[C@H](N=[N+]=[N-])[C@@H](CO)O2)c(=O)[nH]c1=O | IIIB | p24 | 0.0804 µM |
| CCCCCCCCOCCCCC(=O)O | - | RT activity | <100 µM |
| Nc1ccn([C@H]2C=C(F)[C@@H](CO)O2)c(=O)n1 | IIIB | p24 / ELISA | 1 µg/mL |

An empty or dashed field is not shown. Neighbouring rows are from separate reports.